Replication capacity of HIV-1 mutants, integrase

Values reported by Al-Mawsawi et al. 2014 (doi:10.1186/s12977-014-0124-6).

Protein: integrase of HIV-1 NL4-3, numbered from its first residue. The source prints no sequence; the chain below is taken from UniProt P12497, a closely related isolate, and fits the source at the 252 positions it covers.
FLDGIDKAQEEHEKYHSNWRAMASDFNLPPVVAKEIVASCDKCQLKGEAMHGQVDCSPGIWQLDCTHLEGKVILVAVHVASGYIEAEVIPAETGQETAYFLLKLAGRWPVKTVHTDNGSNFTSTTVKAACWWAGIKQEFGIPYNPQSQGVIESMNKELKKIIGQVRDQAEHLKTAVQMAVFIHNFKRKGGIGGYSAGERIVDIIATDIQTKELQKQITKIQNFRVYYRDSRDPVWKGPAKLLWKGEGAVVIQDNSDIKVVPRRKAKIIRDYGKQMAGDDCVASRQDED
Effects on overlapping genes or RNA elements are not listed.

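Seven fragments of pNL4-3 were mutated by error-prone PCR, and each virus pool was passaged in CEM T cells. The RC index is the frequency of a change after passage round 2 divided by its frequency in the plasmid library.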

Values are the RC index; higher means better tolerated. The authors read about 0.1 or less as lethal, 0.1-0.2 as attenuated and 0.2 or more as tolerated. Each entry names the wild-type residue, its position and the residue put in its place. Input reads are the counts in the plasmid library. The authors read an index above 1 as above wild type (1.9% of all changes in the genome). Clones carried about five changes per kilobase, which can drag down the index of neutral changes. Base changes are numbered along pNL4-3.

substitution	base	input reads	RC
W19R	T4284C	439	0.0873
G247E	G4969A	206	0.0980
F223I	T4896A	131	0.0550
E11D	A4262T	506	0.0579
P238L	C4942T	256	0.105
M154I	G4691T	49	1.20
K46N	A4367C	111	0.0540
I204L	A4839T	474	0.0190
I161V	A4710G	162	0.110
H67R	A4429G	219	0.0274
E246G	A4966G	405	0.105
D55Y	G4392T	296	0.169
K156T	A4696C	62	0.115
N120S	A4588G	256	0.0541
K258R	A5002G	283	0.0238
L213I	T4866A	350	0.0463
W108S	G4552C	52	0.114
M178T	T4762C	303	0.0471
K14R	A4270G	298	0.0530
I257V	A4998G	271	0.0414
F100L	C4529A	178	0.0889
V150I	G4677A	176	0.477
C40S	T4347A	303	0.0446
Y15C	A4273G	255	0.0442
P30T	C4317A	140	0.129
Q252K	C4983A	60	0.0748
D25V	A4303T	613	0.0294
V31E	T4321A	502	0.0359
I89T	T4495C	394	0.0912
V176I	G4755A	872	0.0942
H16R	A4276G	408	0.0995
L104S	T4540C	187	0.116
R228K	G4912A	102	0.689
L104F	A4541T	222	0.0267
S81G	A4470G	443	0.0406
H114L	A4570T	381	0.0467
E13V	A4267T	196	0.0460
T66S	A4425T	283	0.120
K46T	A4366C	159	0.0753
G118S	G4581A	242	0.229
E35D	A4334T	467	0.0483
Q209K	C4854A	126	0.172
I267T	T5029C	277	0.113
I217T	T4879C	314	0.0229
A105T	G4542A	533	0.100
Q44H	G4361T	479	0.0804
H16N	C4275A	180	0.301
I251T	T4981C	170	0.0792
V54L	G4389T	117	0.0683
I5T	T4243C	473	0.0429
A76S	G4455T	326	0.0367
I251K	T4981A	197	0.0228
W61R	T4410C	288	0.0485
A265V	C5023T	376	0.203
K266E	A5025G	266	0.160
K188I	A4792T	371	0.0725
V176L	G4755C	260	0.0481
W132C	G4625C	53	0.0373
Y143N	T4656A	405	0.0309
L68I	T4431A	255	0.125
Y194F	A4810T	370	0.0390
I191N	T4801A	153	0.0235
K111I	A4561T	361	0.0548
N254S	A4990G	397	0.0735
R187K	G4789A	268	0.729
D253V	A4987T	187	0.0600
K156R	A4696G	373	0.0479
F181L	T4770C	420	0.0383
Q177R	A4759G	507	0.0423
I204M	A4841G	264	0.0614
K159R	A4705G	279	0.0384
S24C	A4299T	496	0.0500
Q214R	A4870G	387	0.0466
W243R	T4956C	235	0.134
K186I	A4786T	670	0.0428
I182F	A4773T	367	0.0681
H67Q	T4430A	271	0.0368
G106V	G4546T	151	0.0786
R262I	G5014T	241	0.102
S255R	T4994A	300	0.0374
N117S	A4579G	342	0.0463
A86V	C4486T	397	0.146
I191F	A4800T	263	0.0341
V72D	T4444A	341	0.0234
P90Q	C4498A	214	0.0746
M178K	T4762A	635	0.0253
P238S	C4941T	469	0.115
R20K	G4288A	645	0.308
K258Q	A5001C	86	0.0261
F139S	T4645C	334	0.0651
T93I	C4507T	281	0.296
I251L	A4980T	138	0.0325
G118C	G4581T	186	0.170
P261Q	C5011A	88	0.255
E11V	A4261T	220	0.0410
V79E	T4465A	323	0.0495
G247R	G4968A	158	0.199
G193R	G4806A	259	0.243
I200L	A4827T	335	0.0538
K14N	A4271T	510	0.0442
E10D	A4259T	417	0.0703
D116H	G4575C	69	0.172
K188N	A4793T	583	0.0369
L102V	T4533G	58	0.102
I208K	T4852A	329	0.0493
T174R	C4750G	284	0.0440
N144K	T4661A	354	0.0353
R187S	A4790T	167	0.0537
N117D	A4578G	346	0.0514
A129P	G4614C	39	0.101
L172I	C4743A	258	0.118
E138G	A4642G	330	0.0300
N117K	T4580A	597	0.0497
F139L	T4646A	377	0.0367
V113I	G4566A	627	0.290
A239S	G4944T	216	0.0416
Q177L	A4759T	460	0.0272
G4V	G4240T	291	0.101
R269K	G5035A	185	0.364
W19L	G4285T	148	0.168
S123R	T4598G	45	0.0440
N18Y	A4281T	312	0.0795
V234L	G4929C	140	0.144
N184I	A4780T	466	0.0536
D167H	G4728C	40	0.0893
V250L	G4977C	117	0.0384
C130F	G4618T	32	0.309
K34I	A4330T	351	0.0385
I208T	T4852C	198	0.0910